The record followed here is paper PMC4748334.

Assay in all cases: purified protein
Holding throughout (conditions): pH 8.0; 37.0 °C

Data set [1] relates to Nc1nc2c(ncn2[C@@H]2O[C@H](COP(=O)(O)OP(=O)(O)O)[C@@H](O)[C@H]2O)c(=O)[nH]1.
Data set [2] deals with Nc1ncnc2c1ncn2[C@@H]1O[C@H](COP(=O)(O)OP(=O)(O)O)[C@@H](O)[C@H]1O.
The test system of data set [3] is Nc1ncnc2c1ncn2[C@@H]1O[C@H](COP(=O)(O)OP(=O)(O)OP(=O)(O)O)[C@@H](O)[C@H]1O.
The test system of data set [4] is Nc1nc2c(ncn2[C@@H]2O[C@H](COP(=O)(O)OP(=O)(O)OP(=O)(O)O)[C@@H](O)[C@H]2O)c(=O)[nH]1.

One may read the Km as the concentration of substrate that gives half-maximal velocity. As a reminder, the kcat/Km is the turnover number divided by the Michaelis constant. For the substance “FtPPK2 (Francisella tularensis subsp. tularensis SCHU S4)”, the Michaelis-Menten constant (Km) in data set [1] came to 727 ± 138 µM; in data set [2] it was 546 ± 79.2 µM; in data set [3], 372 ± 90.5 µM; in data set [4], 692 ± 235 µM. In addition, the kcat/Km in data set [1] amounted to 5080 M⁻¹ s⁻¹; in data set [2], 5790 M⁻¹ s⁻¹; in data set [3] it was 3920 M⁻¹ s⁻¹; in data set [4], 4000 M⁻¹ s⁻¹.
